Results of unrelated studies side by side (data: NIAID ChemDB).

Shared fields: tests in culture; organism: Hepatitis C virus; measure: EC50

Neighbouring rows are from separate reports. An empty or dashed field is not shown. Two numbers with a dash give a range or band. ECn: concentration that inhibits the pathogen or its effect by n%.

compound | strain or isolate | read by | value
CCCC(NC(=O)[C@@H]1C2CCCC2CN1C(=O)[C@@H](NC(=O)[C@@H](NC(=O)CCCCc1nn[nH]n1)C(C)C)C(C)C)C(=O)C(=O)N[C@@H](C)c1ccccc1 | - | - | >50 µM
COC(=O)c1ccc(Cl)c(-c2cc(-c3cccc(NC(=O)C(Cl)Cl)c3)on2)c1Cl | - | replicon | >10 µM
COc1cccc(N2C(=O)/C(=C/c3ccc(-c4ccc(Cl)cc4)o3)C(=O)N(c3cccc4ccccc34)C2=S)c1 | - | replicon | 18.7 µM
COc1ccc2c(c1)C=C(C(=O)N1CC3CCC(C1)N3)Cn1c-2c(C2CCCCC2)c2ccc(C(=O)NS(=O)(=O)N(C)C)cc21 | - | replicon | 0.001–0.5 µM
Cc1ccc(C(=O)Nc2ccc(N3CCOCC3)cc2)cc1-c1ccc(C(=O)Nc2ccc(CN3CCS(=O)(=O)CC3)cc2)cc1 | 1b | replicon | 0.3 µM
COC(=O)C1=Cc2cc(OC)ccc2-c2c(C3CCCCC3)c3ccc(C(=O)NS(=O)(=O)N(C)C)nc3n2C1 | 1b | replicon | 0.001–0.5 µM
CCOc1nc(NCc2ccc(F)cc2Cl)nc2ccc(-c3ccc(F)cc3)nc12 | - | replicon | <0.1 µM
[N-]=[N+]=N[C@]1(CO)O[C@@H](n2ccc(N)nc2=O)[C@@H](O)[C@@H]1O | - | replicon | 0.171 µM
N=C(N)c1ncn([C@@H]2O[C@H](CO)[C@@H](O)[C@H]2O)n1 | - | - | 1–100 µM
Cc1cc(C)c(-c2cc(-c3cccc(NC(=O)C(Cl)Cl)c3)on2)c(C)c1 | - | replicon | ≤10 µM
NS(=O)(=O)c1ccc(CNc2nc(NC3CC3)c3nc(-c4ccc(F)cc4)ccc3n2)cc1 | - | replicon | <0.1 µM
CC1(C)CC(=O)C2=C(C1)Nc1c(O)cccc1N(C(=O)C(=O)N1CCCCC1)C2c1ccc(OCc2ccccc2)cc1F | 1b | luciferase / reporter gene / replicon | 1.95 µM
Cc1ccc(C(=O)Nc2ccc(N3CCOCC3)cc2)cc1-c1ccc(C(=O)Nc2ccc(CN3CCOCC3)cc2)cc1 | 1b | replicon | 2.78 µM
CO[C@@H]1[C@H](OP(=O)(NCCCCCC(=O)[O-])OC[C@H]2O[C@@H](n3ccc(N)nc3=O)[C@H](O)[C@@H]2O)[C@@H](CO)O[C@H]1n1cnc2c(=O)[nH]c(N)nc21 | - | - | 160 µM
Cc1ccc(C(=O)Nc2ccc(N3CCOCC3)cc2)cc1-c1ccc(C(=O)Nc2ccc(CN3CCN(S(C)(=O)=O)CC3)cc2)cc1 | 1b | replicon | 0.26 µM
CC1(C)CC(=O)C2=C(C1)Nc1c(O)cccc1N(C(=O)CN1CCOCC1)C2c1ccc(OCc2ccccc2)cc1F | 1b | luciferase / reporter gene / replicon | 0.88 µM
COc1ccc2c(c1)C=C(C(=O)N1C[C@@H](C)O[C@@H](C)C1)Cn1c-2c(C2CCCCC2)c2cccnc21 | 1b | replicon | 0.5–10 µM
O=C(O[C@@H]1Cc2c(O)cc(O)cc2O[C@@H]1c1cc(O)c(O)c(O)c1)c1cc(O)c(O)c(O)c1 | 1a | luciferase | 5 µM
CC1(C)CC(=O)C2=C(C1)Nc1c(O)cccc1N(C(=O)c1cccc(C#N)c1)C2c1ccc(OCc2ccccc2)cc1F | 1b | luciferase / reporter gene / replicon | 0.88 µM
COc1ccc2c(O[C@@H]3C[C@H]4C(=O)N[C@]5(C(=O)NS(=O)(=O)C6CC6)C[C@H]5/C=C\CCCCCCC(=O)N4C3)cc(-c3nccs3)nc2c1C | - | - | 0.018 µM
Cn1nc(C(=O)N2c3cccc(O)c3NC3=C(C(=O)CC(C)(C)C3)C2c2ccc(OCc3ccccc3)cc2F)cc1-c1cccs1 | 1b | luciferase / reporter gene / replicon | 2.19 µM
O=C(Nc1ccc(CN2CCS(=O)(=O)CC2)cc1)c1ccc(-c2cc(NC(=O)C3CC3)ccc2OC(F)(F)F)cc1 | 1b | replicon | 0.062 µM
COc1ccc2c(c1)C=C(C(=O)N1C3CCC1CN(C)C3)Cn1c-2c(C2CCCCC2)c2ccc(C(=O)O)cc21 | - | replicon | 0.001–0.5 µM
C=CCc1ccccc1S(=O)(=O)NC(=O)[C@H](CCC)NC(=O)[C@@H](NC(=O)[C@@H](NC(=O)OC(C)(C)C)C(C)(C)C)c1ccc(Oc2cc(-c3ccccc3)nc3cc(OC)ccc23)c(C=C)c1 | 1b replicon | luciferase / replicon | >10 µM
O=C(O)c1ccccc1-c1cc(-c2cccc(NC(=O)C(Cl)Cl)c2)on1 | - | replicon | >10 µM
Nc1ccnc2cc(-c3ccc(-c4cc(N(C(=O)C5CCC(C(F)(F)F)CC5)C5CCOCC5)c(C(=O)O)s4)cc3)nn12 | 1a | replicon / ELISA | 0.005–0.0099 µM
Cc1ccc(NC(=O)[C@@H]2CCCN2)cc1-c1ccc(C(=O)Nc2ccc(CN3CCS(=O)(=O)CC3)cc2)cc1 | 1b | replicon | 0.13 µM
CCOCCN(C(=O)C1CCC(C)CC1)c1cc(-c2ccc(-c3cc4ncccc4o3)cc2)sc1C(=O)O | 1b | replicon / ELISA | 0.005–0.0099 µM
C=CC1CC1(NC(=O)[C@@H]1C[C@@H](Oc2cc(-c3ccccc3)nc3cc(OC)ccc23)CN1C(=O)[C@@H](CC(=O)N1CCCCC1)C(C)(C)C)C(=O)NS(=O)(=O)C1CC1 | - | replicon | 1–10 µM
CCOCCN(C(=O)C1CCC(C)CC1)c1cc(-c2ccc(-c3cc4nccc(N)n4n3)cc2)sc1C(=O)O | 1a | replicon / ELISA | 0.001–0.0049 µM
CCOc1nc(NCc2ccc(S(N)(=O)=O)cc2)nc2ccc(-c3ccc(NC(=O)C(N)[C@@H](C)O)cc3)nc12 | - | replicon | <0.1 µM
CC1CCC(C(=O)N(c2cc(-c3ccc(-c4cc5ncccc5o4)cc3)sc2C(=O)O)C2CCOC2)CC1 | 1a | replicon / ELISA | 0.005–0.0099 µM
C=CC1CC1(NC(=O)[C@@H]1C[C@@H](Oc2cc(-c3ccccc3)nc3cc(OC)ccc23)CN1C(=O)[C@@H](CC(=O)N1CCCCC1)C(C)(C)C)C(=O)OCC | - | replicon | 1–10 µM
CCCC(NC(=O)[C@@H]1C2CCCC2CN1C(=O)[C@@H](NC(=O)[C@@H](NC(=O)CCCCc1nn[nH]n1)C(C)C)C(C)C)C(=O)C(=O)NC1CC1 | - | - | >50 µM
NS(=O)(=O)c1ccc(CNc2nc(NC3CC3)c3nc(-c4ccc(F)c(NS(=O)(=O)C5CC5)c4)ccc3n2)cc1 | - | replicon | <0.1 µM
Cc1cccc(C(=O)N2c3cccc(O)c3NC3=C(C(=O)CC(C)(C)C3)C2c2ccc(OCc3cccc(F)c3)cc2F)n1 | 1b | luciferase / reporter gene / replicon | 1.12 µM
O=C(Nc1ccnc(-c2cc(-c3c(Cl)cccc3Cl)no2)c1)C(Cl)Cl | - | replicon | 0.02988 µM
C=CCCCCS(=O)(=O)NC(=O)[C@H](CCC)NC(=O)[C@@H](NC(=O)[C@@H](NC(=O)OC(C)(C)C)C(C)(C)C)c1ccc(Oc2cc(-c3ccccc3)nc3cc(OC)ccc23)c(C=C)c1 | 1b replicon | luciferase / replicon | >10 µM
O=c1c(O)c(-c2ccc(O)c(O)c2)oc2cc(O)c(O)c(O)c12 | genotype 2a JFH1 | replicon | 11 µM
Cc1cc2c([nH]c(=O)n2Cc2ccc(F)cc2)c(N)n1 | - | replicon | 0.926 µM
O=C(Nc1cccc(-c2cc(-c3ccccc3-c3ccccc3)no2)c1)C(Cl)Cl | - | replicon | ≤10 µM
CCOc1nc(NCc2ccc(F)cc2)nc2ccc(-c3ccc4[nH]ncc4c3)nc12 | - | replicon | <0.1 µM
CC(C)(C)OC(=O)N1CCN([C@@H](c2ccccc2)C(N)c2ccccc2)CC1 | - | absorbance | 2.21 µM
COc1cccc(F)c1-c1cc(-c2cccc(NC(=O)C(Cl)Cl)c2)on1 | - | replicon | ≤10 µM
COc1ccc2c(c1)CC(C(=O)N1C3CCC1CN(C)C3)Cn1c-2c(C2CCCCC2)c2ccc(C(=O)NS(=O)(=O)N(C)C)cc21 | - | replicon | 0.001–0.5 µM
O=C(Nc1cccc(-c2cc(-c3c(Cl)cccc3C3CCCCC3)no2)c1)C(Cl)Cl | - | replicon | ≤10 µM
CC(=O)N1c2cccc(O)c2NC2=C(C(=O)CC(C)(C)C2)C1c1c(Cl)cccc1Cl | 1b | luciferase / reporter gene / replicon | 12.17 µM
CCCCCCCC(=O)CCCCCC/C=C/[C@H](C(=O)N[C@@H](Cc1ccc(CCCC(C)C)cc1)C(=O)O)[C@@](O)(CC(=O)O)C(=O)O | - | - | 0.012 µM
Cc1ccc(C(=O)NC(C)C)cc1-c1ccc(C(=O)Nc2ccc(CN3CCS(=O)(=O)CC3)cc2)cc1 | 1b | replicon | 5.1 µM
C=CC1CC1(NC(=O)[C@@H]1C[C@@H](Oc2cc(-c3ccccc3)nc3cc(OC)ccc23)CN1C(=O)[C@@H](CC(=O)N1CCCCC1C(N)=O)C(C)(C)C)C(=O)OCC | - | replicon | >10 µM
COC(=O)N[C@H](C(=O)N1CCC[C@H]1c1ncc(-c2ccc(-c3ccc(-c4cnc([C@@H]5CCCN5C(=O)[C@@H](NC(=O)OC)C(C)C)[nH]4)cc3)cc2)[nH]1)C(C)C | 1b | replicon | 4.2 pM
C=C[C@@H]1C[C@]1(NC(=O)[C@@H]1C[C@@H]2CN1C(=O)[C@H](C(C)(C)C)NC(=O)C[C@@H]1C[C@H]1CCCCCc1nc3ccc(OC)cc3nc1O2)C(=O)NS(=O)(=O)C1CC1 | 1b | replicon | 0.0035 µM
CC1(C)CC(=O)C2=C(C1)Nc1c(O)cccc1NC2c1ccc(S(C)(=O)=O)cc1 | 1b | luciferase / reporter gene / replicon | >100 µM
CC1CCC(C(=O)N(CC2CCOCC2)c2cc(-c3ccc(-c4cc5ncccn5n4)cc3)sc2C(=O)O)CC1 | 1a | replicon / ELISA | 0.001–0.0049 µM
COc1ccc2c(c1)C=C(C(=O)N1CC3CCC(C1)N3C)Cn1c-2c(C2CCCCC2)c2ccc(C(=O)NS(=O)(=O)N(C)C)cc21 | - | replicon | 0.001–0.5 µM
O=C(Nc1cccc(-c2noc(-c3c(Cl)cccc3Cl)n2)c1)C(Cl)Cl | - | replicon | ≤10 µM
CC1CCC(C(=O)N(c2cc(-c3ccc(-c4cn5ccsc5n4)cc3)sc2C(=O)O)C2CCOCC2)CC1 | 1a | replicon / ELISA | 0.01–0.049 µM
CN(C)CCCOc1ccc(NC(=O)C2CC2)cc1-c1ccc(C(=O)Nc2ccc(CN3CCS(=O)(=O)CC3)cc2)cc1 | 1b | replicon | 8.35 µM
C=CC1CC1(NC(=O)[C@@H]1C[C@@H](Oc2cc(-c3ccccc3)nc3cc(OC)ccc23)CN1C(=O)[C@@H](CC(=O)N1CCc2ccccc2C1)C(C)(C)C)C(=O)O | - | replicon | <100 µM

The first 5 rows once more:

CCCC(NC(=O)[C@@H]1C2CCCC2CN1C(=O)[C@@H](NC(=O)[C@@H](NC(=O)CCCCc1nn[nH]n1)C(C)C)C(C)C)C(=O)C(=O)N[C@@H](C)c1ccccc1 ; value: >50 µM
COC(=O)c1ccc(Cl)c(-c2cc(-c3cccc(NC(=O)C(Cl)Cl)c3)on2)c1Cl ; read by: replicon ; value: >10 µM
COc1cccc(N2C(=O)/C(=C/c3ccc(-c4ccc(Cl)cc4)o3)C(=O)N(c3cccc4ccccc34)C2=S)c1 ; read by: replicon ; value: 18.7 µM
COc1ccc2c(c1)C=C(C(=O)N1CC3CCC(C1)N3)Cn1c-2c(C2CCCCC2)c2ccc(C(=O)NS(=O)(=O)N(C)C)cc21 ; read by: replicon ; value: 0.001–0.5 µM
Cc1ccc(C(=O)Nc2ccc(N3CCOCC3)cc2)cc1-c1ccc(C(=O)Nc2ccc(CN3CCS(=O)(=O)CC3)cc2)cc1 ; strain or isolate: 1b ; read by: replicon ; value: 0.3 µM